Assay [1] concerns the target T1, human H4 receptor (Homo sapiens (Human), UniProt Q9H3N8). Nature of the assay: Binding assay on recombinant human histamine H4 receptor ([3H]histamine competition, SK-N-MC cell membranes). As to the method:
Binding Assay on Recombinant Human Histamine H4Receptor
Cell pellets from SK-N-MC cells stably or transiently transfected with human H4 receptor (NCBI accession No. AF312230) were used for the binding assays. Cell pellets were homogenized in 50 mM Tris/5 mM EDTA buffer and supernatants from an 800 g spin were collected and recentrifuged at 30,000 g for 30 min. Pellets were rehomogenized in 50 mM Tris/5 mM EDTA buffer. […] Membranes were harvested by rapid filtration using the 96 well Brandel system (Table 1, Brandel) or a cell harvester (Table 1, Cell Harvester) using a Whatman GF/C filter or filter plates treated with 0.5% polyethylenimine (PEI), and washed 4 times with ice-cold 50 mM Tris/5 mM EDTA buffer. Filters were then dried, mixed with scintillant and radioactive counts were determined. […] Where activity is shown as greater than (>) a particular value, the value is the highest concentration tested.

Protein sequences, listed by entry. Tags and fused reporters are not part of them. Lines headed by an entry give the natural chain unless they say otherwise; changes in a name come on top.
UniProt Q9H3N8: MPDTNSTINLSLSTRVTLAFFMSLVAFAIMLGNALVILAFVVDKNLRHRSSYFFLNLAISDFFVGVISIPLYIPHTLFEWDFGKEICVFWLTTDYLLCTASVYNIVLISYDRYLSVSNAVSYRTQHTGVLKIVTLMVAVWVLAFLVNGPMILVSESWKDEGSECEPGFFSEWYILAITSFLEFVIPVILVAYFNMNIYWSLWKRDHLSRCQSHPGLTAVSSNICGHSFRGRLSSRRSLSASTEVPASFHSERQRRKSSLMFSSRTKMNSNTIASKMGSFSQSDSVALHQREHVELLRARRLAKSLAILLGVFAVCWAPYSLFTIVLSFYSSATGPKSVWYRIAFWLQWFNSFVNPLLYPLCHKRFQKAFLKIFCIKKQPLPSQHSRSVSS

Assay [2] addresses T1, human H4 receptor. The class given is cell-based. To be noted: apparent pA2 from Schild plot; antagonism of histamine inhibition of forskolin-stimulated cAMP. The method, then:
SK-N-MC cell lines were created that express a reporter gene construct and the human H4 receptor full-coding region (NCBI accession No. AF312230). The reporter gene was β-galactosidase under the control of cyclic AMP-responsive elements. Cells were plated in 96-well plates the night before the assay. Histamine was used as the agonist for all assay. For the H4 receptor, the inhibition of forskolin-stimulated cAMP production was measured. For determination of antagonist activity, compounds were added 10 min prior to the addition of agonist, which was added directly to the cell medium. Forskolin (5 μM final concentration) was added 10 min after the addition of histamine. Cells were returned to the incubator for 6 h at 37° C. The medium was then aspirated, and the cells were washed with […] of phosphate-buffered saline (PBS). Cells were lysed with 25 μL of 0.1X assay buffer (10 mM sodium phosphate, pH 8, 0.2 mM MgSO4, and 0.01 mM MnCl2) and incubated at rt for 10 min. Cells were then incubated for 10 min with 100 μL of 1X assay buffer containing 0.5% (v/v) Triton X-100 and 40 mM β-mercaptoethanol. […] Color was quantitated on a microplate reader by measuring the absorbance at 570 nm. […] Dose ratios were calculated from individual concentration-response curves of agonists at three to five antagonist concentrations. Apparent pA2 values were calculated using a Schild plot (ND=not determined).

Setting [3] is: membranes harvested with cell harvester, [3H]histamine 10 nM, average of results, read-out: Cell Harvester Ki.

Usually Ki stands for the equilibrium dissociation constant of an inhibitor or competing ligand from its target. One may read the pA2 as the negative logarithm of the molar antagonist concentration that doubles the agonist concentration needed for the same response.

Read-outs that look alike come from different tables or passages of the source.

Regarding `CN[C@H]1CCN(c2cnnc(NC3CC4CCC3C4)c2)C1` (stereo partly drawn) [Example 381, N-Bicyclo[2.2.1]hept-2-yl-5-[(3S)-3-(methylamino)pyrrolidin-1-yl]pyridazin-3-amine], in assay [1] (setting [3]), the Ki is 5.51 nM.
As for `CN[C@H]1CCN(c2ccnc(NC3CCCC3)c2)C1` [Example 228, N-Cyclopentyl-4-[(3S)-3-(methylamino)pyrrolidin-1-yl]pyridin-2-amine], the pA2 in assay [2] is 7.4. Also, the Ki in assay [1] (Cell Harvester Ki (nM)) turned out to be 31.8 nM.
On to `CN[C@H]1CCN(c2ccnc(NCC(C)C)c2)C1` [Example 15, 4-[(3S)-3-(Methylamino)pyrrolidin-1-yl]-N-(2-methylpropyl)pyridin-2-amine], for which the Ki in assay [1] (Cell Harvester Ki (nM)) turned out to be 149 nM; in assay [1] (read-out: Brandel Ki), 54.3 nM.
With `CN[C@@H]1CCN(c2ccnc(NC3CCCC3)c2)C1` [Example 2, N-Cyclopentyl-4-[(3R)-3-(methylamino)pyrrolidin-1-yl]pyridin-2-amine], the Ki in assay [1] (Cell Harvester Ki (nM)) worked out at 3.83 nM.
With `CN[C@@H]1CCN(c2cnnc(NC3CC4CCC3C4)c2)C1` (stereo partly drawn) [Example 96, N-Bicyclo[2.2.1]hept-2-yl-5-[(3R)-3-(methylamino)pyrrolidin-1-yl]pyridazin-3-amine], the Ki in assay [1] (membranes harvested with 96 well Brandel system, [3H]histamine 10 nM, average of results, read-out: Brandel Ki) worked out at 1 nM; in assay [1] (setting [3]), 1 nM.
On to `CN[C@@H]1CCN(c2ccnc(NCC(C)C)c2)C1` [Example 22, 4-[(3R)-3-(Methylamino)pyrrolidin-1-yl]-N-(2-methylpropyl)pyridin-2-amine], for which the figures for the Ki in assay [1] (Cell Harvester Ki (nM)) and in assay [1] (read-out: Brandel Ki) were 1.5 nM and 1.7 nM, respectively.
